The target in one data set is RpoN2 (sigma54) (UniProt B0RT01). The experiment in a line: EMSA. Particulars: 0-8 uM protein, no core RNAP, recombinant protein, residues 21-487, protein details: N-terminal His6 (pET-28b), probe letters rebuilt from the primers and the genome. (In EMSA bound probe runs differently from free probe, usually more slowly.)
Another data set concerns the target RpoN1 (sigma54) (UniProt B0RQH3). The experiment in a line: EMSA. Particulars: 0-8 uM protein, no core RNAP; recombinant protein; protein details: N-terminal His6 (pET-28b); probe letters rebuilt from the primers and the genome.

The exact form of at least one protein or probe is not confirmed.

For the sequence “ACGGCCGAGAACAGCTAGTAACAGCGAAGGGACAGCGACAGCGACGAGGTAAGGGGCACGGCCACCTTCAAGACCGTGGAGGGCGCACTGCGTATCACCGGCCAACTGAGCGGGCTCAAGCCCAACAGCGAGTATGGCTTCCACAGCGGCAGCGGCAGATTCGCCGCATCGCTGCTCGGTGCGCCACCGCAATCAGTCCCAACCGGGCGCTTCGGCACCGTGACCAGAACGATCCCCACTCCCGTGTCGACAGACTCAACAATCCTTGCTCGGTGCACCACCGCAATGCGTGCCCGCATCGGGCACTTCAGCCCCTGCTCCAAACGAATCACCAATCCCACCTCCCCAATCCCCTCCTTTGGCACCGCACTTGCATCAGCACTCCCCATGAGCCCTGAAATCGCCCTGACCGAATTGCGTGGTGGCCTGGTCACCGTCTTGTGGATTGCCGGACCGATGTTGCTGGCGGTGCTGGTCGTTGGTGTCGTGATTGGTGTG (double strand) [pXCC fliQ]”, in the data set with RpoN2 (sigma54) (legend body names RpoN1, title and text RpoN2), the binding result is recorded as “binds”.

Take “GCCGGATAACTTTGCAACCAAGGACGTGCCTGACTCATCTGCCCCCCCTCCAGGGTATTCGTTGGTGGCGTGCCATGTTCCACGGCGCCACAGCAACTGGCAGCATACCGTCATGGATGGAAAAGGCGAAGCGTGATGCGCAGCAGCATTTTGAGGTGGCAGGTCGGGCTAGTCGCGTTCTGCGTGCTGCTGGTGGCCGGCTGCGCGAAGCCGGGCCCGGAGCAGCGGCTGCGTGCCACGGTGGAGCAGATGCGCGCGGCGATCGAGGCACGCGATGTACGCGGGGCGATGGCGCCGGTGGCAGAGGATTTTGTCGGCGAGCACGGCATGGACGCGGCCGGGGCGCGGCGCCTGCTGCAACTGCAACTGCTGGGTCATCAAGCGATCGGCGTCACCGTCGGGCCGGTGGACGTGCAGATGCAGGGCAGTACGGCAACCGTGCGCTTCAGCGTGTTGCTGACCGGCGGCGGCGGACGCTGGCTGCCTGATCAGGCGCAGCACTACCAGGTCACCA (double strand) [pXCC rpfB]”: the binding result with RpoN1 (sigma54) is “binds”.

“TCGAACTGTTGGTGTTGAGGTTACGCTGAGCGTTCAGCGACATTACGTTGGTGTTGATTACCTGTGCCATTTTGATATCTCCTCTAAGCGATTTTTCCGGCAAGGGGGCTTGCCTGGAGCCTCCGCAGGGGGGCCATCAAGTTGGCCGTTGCCGCTGCTGAGATGAATAACGGCGATGCTCTGGGAACCTTTAGCGCATTTCAGTATTTTTTTTCTATTTCTTGCTTGAAGGCGCAACGCGCGTAGCGTTGTGTATCAAGGGGTTCGGTTTATTCGGCAGCAACTGCCAGATCTTTAGCGTTGGTATAAATGCACCCGCGATAAACTCCGTTGCCTTCGCACATTGCTTGGTGCGAAGGGGCAGGAAACCACGGGTTTTTGCGCGCAATCAGCGGATCAGATTGAACAGC (double strand) [pXCC fliC]”: the binding result in the data set with RpoN2 (sigma54) is listed as “binds”.

As to “TCGTTGCTCATTGAAAATCCTTGCGGTGTGGGCAGTGGGAAAGGAATCAGCCGGCAGTGGAGATACGTACTGGCCGAACAAAGCGGGGAATCACAACGGCGTCGTCCATGCAGGGATGCACCTCGCCGCGTGTTGCGGCGTTGCTGAAGCACTCTGCGGTGGTGGAGATGGCGTTGTTCATGTCATTCGAAACTTTTGGTGGTCCCTGAAACGCGAAACCCCGCGCCGTTGCCGGTGCGGGGTCTGATCGAAGCCTTGTGTGTCTGTTGCCTACACGAAGCCGCGTCCCGCACCGGTTGGCGAGGTAATAAGTACGAGCACGAGAAGCGACGCCGGCACGCCGATGGGCGCGGGCAGTGAAGCGTTCAAGGTGGCGGTGCGGTGCGGCATGGACCTGAGATAACCACCG (double strand) [pXCC leuA]”, the binding result in the data set with RpoN1 (sigma54) was “binds”.

(Values after publication PMC7280030.)
